Compound potency records, mixed from different reports. Data source: NIAID ChemDB in PubChem.

Shared fields: growth or infection tests; agent: HIV-1; method: β-galactosidase; endpoint: EC50

Rows are shuffled and stem from different studies.

Cc1cc(C#N)cc(C(=O)c2cc(Cl)ccc2OCC(=O)Nc2ccc(S(N)(=O)=O)nc2C)c1 ; strain or isolate: HXB2 ; mutations: RT-K103N P225H ; cells: HeLa + HELA CD4+ ; value: <0.01 µM
O=S(=O)(O)c1c2ccccc2c(-c2c3nc(c(-c4c5ccccc5c(S(=O)(=O)O)c5ccccc45)c4ccc([nH]4)c(-c4c5ccccc5c(S(=O)(=O)O)c5ccccc45)c4nc(c(-c5c6ccccc6c(S(=O)(=O)O)c6ccccc56)c5ccc2[nH]5)C=C4)C=C3)c2ccccc12 ; strain or isolate: IIIB ; cells: MAGI ; value: <5 µg/mL
N=C1Sc2ccccc2C2=NCCCN12 ; strain or isolate: RU132 ; cells: PBMC ; value: 0.2 µM
CCc1ccc(CCN=C2NC(=O)/C(=C/c3ccc(-c4ccc(C(=O)O)c(O)c4)o3)S2)cc1 ; strain or isolate: NL4-3 ; cells: TZM-bl ; value: 1 µM
C=C[C@@H](O)C1=C[C@@H](n2cnc3c(N)ncnc32)[C@H](O)[C@@H]1O ; cells: HeLa CD4+/TAT+ + HeLa ; value: 6.16 µM
Cc1c(OCC2CCC2)c2cc(F)ccc2[nH]c1=O ; strain or isolate: NNRTI-resistant (RT V106A Y181C) ; mutations: RT-V106A Y181C ; cells: HeLa + HeLa-MAGI ; value: >2 µM
Nc1ncnc2c1ncn2[C@@H]1C=C(CO)[C@@H](O)[C@H]1O ; cells: HeLa CD4+/TAT+ + HeLa ; value: 1.9 µM
O=C(O)[C@@H](C1CCCCC1)N1C[C@H](CN2CCC(c3csc(Cc4ccccc4)n3)CC2)[C@@H](c2ccccc2)C1 ; cells: MAGI ; value: <0.033 µM
Cc1cc(S(N)(=O)=O)ccc1NC(=O)COc1ccccc1C(=O)c1cc(Cl)cc(C#N)c1 ; strain or isolate: WT ; cells: HeLa MAGI + HeLa ; value: ~0.0005 µM
O=S(=O)(O)c1ccc(-c2c3nc(c(-c4ccc(S(=O)(=O)O)cc4)c4ccc([nH]4)c(-c4ccc(S(=O)(=O)O)cc4)c4nc(c(-c5ccc(S(=O)(=O)O)cc5)c5ccc2[nH]5)C=C4)C=C3)cc1 ; strain or isolate: IIIB ; cells: MAGI ; value: <50 µg/mL
N#C[C@]1(CO)O[C@@H](n2cnc3c(N)ncnc32)C[C@@H]1O ; strain or isolate: HXB2 ; cells: MAGI ; value: 0.043 µM
C=C(C)[C@@H]1CC[C@]2(C(=O)NCCCCCCCC(=O)N[C@@H](CC(C)C)[C@@H](O)CC(=O)O)CC[C@]3(C)[C@H](CC[C@@H]4[C@@]5(C)CC[C@H](O)C(C)(C)[C@@H]5CC[C@]43C)[C@@H]12 ; strain or isolate: LAI ; cells: HeLa P4 + HeLa ; value: ~1 µM
N#CC(N)=NCCCCCC[NH+]=C(N)NC(N)=NCCCCCCN=C(N)NC(N)=[NH+]CCCCCCN.[Cl-].[Cl-] ; strain or isolate: IIIB ; cells: HeLa ; value: 33 µM
O=S(=O)(O)c1ccc(-c2c3nc(c(-c4ccc(S(=O)(=O)O)cc4)c4ccc([nH]4)c(-c4ccc(S(=O)(=O)O)cc4)c4nc(c(-c5ccc(S(=O)(=O)O)cc5)c5ccc2[nH]5)C=C4)C=C3)cc1 ; strain or isolate: IIIB ; cells: MAGI ; value: <50 µg/mL
O=C(O)[C@@H](C1CCCCC1)N1C[C@H](CN2CCC(c3ncc(Cc4ccccc4)o3)CC2)[C@@H](c2ccccc2)C1 ; cells: MAGI ; value: <0.1 µM
Cc1cc(C)cc(C(=O)c2cc(Cl)ccc2OCC(=O)Nc2ccc(S(N)(=O)=O)cc2C)c1 ; strain or isolate: HXB2 ; mutations: RT-K103N P225H ; cells: HeLa + HELA CD4+ ; value: <0.01 µM
O=S(=O)(Cc1c(Cl)c(Cl)c(Cl)c(Cl)c1Cl)c1cccc[n+]1[O-] ; strain or isolate: IIIB ; cells: MAGI ; value: 0.5 µg/mL
Cc1cc(S(N)(=O)=O)ccc1NC(=O)COc1ccc(Cl)cc1C(=O)c1cc(F)cc(C(F)(F)F)c1 ; strain or isolate: HXB2 (RT-K103N G100I) Recombinant ; mutations: RT-L100I K103N ; cells: HeLa + HELA CD4+ ; value: <0.01 µM
O=C(Nc1ccc(Cl)cc1)N(CCCN1CCC(Cc2ccccc2)CC1)c1ccccc1 ; strain or isolate: BaL ; cells: MAGI + MT-4 ; value: <0.16 µM
Cc1cc(S(N)(=O)=O)ccc1NC(=O)COc1ccc(Cl)cc1C(=O)c1cc(Cl)cc(C#N)c1 ; strain or isolate: HXB2 (RT-K103N G190A) Recombinant ; mutations: RT-K103N G190A ; cells: HeLa + HELA CD4+ ; value: <0.01 µM
Nc1ccn([C@H]2CC[C@@H](CO)O2)c(=O)n1 ; strain or isolate: NL4-3 ; mutations: H258Q A312T ; value: 0.633 µM
C[C@@H](O)C1=C[C@@H](n2cnc3c(N)ncnc32)[C@H](O)[C@@H]1O ; cells: HeLa CD4+/TAT+ + HeLa ; value: 3.5 µM
O=C1NC(=NCc2cccc(F)c2)S/C1=C\c1ccc(-c2ccc(C(=O)O)c(O)c2)o1 ; strain or isolate: AD8 ; cells: TZM-bl ; value: 1.3 µM
Cc1cc(C#N)cc(C(=O)c2cc(Cl)ccc2OCC(=O)Nc2ccc(OCCCN3CC=CC3)cc2C)c1 ; strain or isolate: HXB2 ; mutations: RT-K103N P225H ; cells: HeLa + HELA CD4+ ; value: <0.01 µM
Nc1ccn([C@H]2CC[C@@H](CO)O2)c(=O)n1 ; mutations: Wild type ; cells: MAGI ; value: 0.505 µM
N#C[C@]1(CO)O[C@@H](n2cnc3c(=O)[nH]cnc32)C[C@@H]1O ; strain or isolate: 3TC-resistant (RT M184V) ; mutations: RT-M184V ; cells: MAGI ; value: 6.06 µM
Cc1cc(S(N)(=O)=O)ccc1NC(=O)COc1ccc(Cl)cc1C(=O)c1cc(F)cc(F)c1 ; strain or isolate: HXB2 ; mutations: RT-V106I Y181C ; cells: HeLa + HELA CD4+ ; value: 0.011–0.1 µM
N#CC(N)=NCCC[NH+]=C(N)NC(N)=NCCCCCC[NH+]=C(N)NC(N)=NCCN.[Cl-].[Cl-] ; strain or isolate: IIIB ; cells: HeLa ; value: 88 µM
O=C1NC(=Nc2ccc(Cl)c(F)c2)S/C1=C\c1ccc(-c2ccc(C(=O)O)c(O)c2)o1 ; strain or isolate: AD8 ; cells: TZM-bl ; value: >10 µM
CC(O)CCCCCC(CCCCCCCCCCCCCC1CC(=O)OC[C@H]2O[C@@H](OC(CCCCCCCCCCCC(CCCCCC(C)O)O[C@@H]3O[C@H](CO)[C@@H](O)[C@H](O)[C@H]3O)CC(=O)OC[C@@H]3O[C@H](O1)[C@@H](O)[C@H](O)[C@H]3O)[C@H](O)[C@@H](O)[C@@H]2O)O[C@@H]1O[C@H](CO)[C@@H](O)[C@H](O)[C@H]1O ; strain or isolate: 89.6 ; cells: MAGI (CCR5) + MAGI ; value: 6.1 µg/mL
O=C1NC(=NCc2ccc(Cl)cc2)S/C1=C\c1ccc(-c2ccc(C(=O)O)c(O)c2)o1 ; strain or isolate: AD8 ; cells: TZM-bl ; value: 4.3 µM
CC(O)C(=O)[O-].CC(O)C(=O)[O-].N#CC(N)=NCCN=C(N)NC(N)=[NH+]CCCCCC[NH+]=C(N)NC(N)=NCCN ; strain or isolate: IIIB ; cells: HeLa ; value: 989 µM
Cc1cc(S(N)(=O)=O)ccc1NC(=O)COc1ccc(Cl)cc1C(=O)c1cc(F)cc(C(F)(F)F)c1 ; strain or isolate: HXB2 ; setting: 25% human serum ; cells: HELA MAGI ; value: 7.7 µM
N#CC(N)=NCCN=C(N)NC(N)=[NH+]CCCCCC[NH+]=C(N)NC(N)=NCCN.[Cl-].[Cl-] ; strain or isolate: IIIB ; cells: HeLa ; value: 100.5 µM
O=C(O)[C@@H](C1CCCCC1)N1C[C@H](CN2CCC(c3csc(-c4ccccc4)n3)CC2)[C@@H](c2ccccc2)C1 ; cells: MAGI ; value: <0.1 µM
O=C(O[C@@H]1[C@H](OC(=O)c2ccccc2)[C@@H](CO)O[C@H]1n1cnc2c(N(C(=O)c3ccccc3)C(=O)c3ccccc3)ncnc21)c1ccccc1 ; strain or isolate: NL4-3 ; cells: HeLaP4 ; value: 1–2 µM

3 of the rows above, restated:

| compound | strain or isolate | mutations | setting | cells | value |
|---|---|---|---|---|---|
| O=S(=O)(O)c1ccc(-c2c3nc(c(-c4ccc(S(=O)(=O)O)cc4)c4ccc([nH]4)c(-c4ccc(S(=O)(=O)O)cc4)c4nc(c(-c5ccc(S(=O)(=O)O)cc5)c5ccc2[nH]5)C=C4)C=C3)cc1 | IIIB |  |  | MAGI | <50 µg/mL |
| N#CC(N)=NCCCCCC[NH+]=C(N)NC(N)=NCCCCCCN=C(N)NC(N)=[NH+]CCCCCCN.[Cl-].[Cl-] | IIIB |  |  | HeLa | 33 µM |
| N#C[C@]1(CO)O[C@@H](n2cnc3c(N)ncnc32)C[C@@H]1O | HXB2 |  |  | MAGI | 0.043 µM |

ECn: concentration that inhibits the pathogen or its effect by n%. Blank or dashed fields: not listed here. Two numbers with a dash give a range or band.